# Source: PubChem BioAssay AID540256 (National Center for Advancing Translational Sciences (NCATS), 2011)
# This is a selection; strong and weak results do not stand in their true shares. Inconclusive results are not listed. The source made the active and inactive calls. Calls come from the whole dose curve; tested in HEK293 cells.
# Test: qHTS for Inhibitors of binding or entry into cells for Lassa Virus; note: nearly all actives have a fitted effect of over 50% in size
# Details: Lassa virus pseudotype entry inhibition, cell reporter
# Potency is the fitted concentration of half-maximal effect.
row,SMILES,Potency
1,Cc1cc(N(CCCl)CCCl)ccc1C=O,active: 282 nM
